A mixed list of measured activities; the numbers were collected in NIAID ChemDB.

All rows: whole-cell or culture tests; agent: HIV-1; cells: CEM; read-out: EC50

An empty or dashed field is not shown. ECn: concentration that inhibits the pathogen or its effect by n%. Lines come from different laboratories, so protocols vary.

smiles | strain | mutations | read by | value
Cc1cn([C@@H]2O[C@H](CCC(C)C)C3(OS(=O)(=O)C=C3N)[C@H]2OC(=O)c2ccccc2)c(=O)[nH]c1=O | IIIB |  | syncytia | >20 µg/mL
CC(C)CN(C[C@@H](O)[C@H](Cc1ccccc1)NC(=O)OCc1cccnc1)S(=O)(=O)c1ccc2ncsc2c1 | IIIB |  | cytopathic effect / MTT | 0.011 µM
Cc1cn([C@H]2C[C@H](N=[N+]=[N-])[C@@H](CO)O2)c(=O)[nH]c1=O |  |  | XTT | 0.001 µM
Cc1c(O)cccc1C(=O)N[C@@H](Cc1ccccc1)[C@H](O)CN(CC(C)C)S(=O)(=O)c1ccc2ncsc2c1 | IIIB |  | cytopathic effect / MTT | 0.007 µM
CC(C)(C)NC(=O)c1ccccc1SC[C@H](O)[C@H](Cc1ccccc1)NC(=O)[C@H](CC(N)=O)NC(=O)c1ccc2ccccc2n1 |  |  |  | 4.99 µg/mL
CC(C)CN(C[C@@H](O)[C@H](Cc1ccccc1)NC(=O)[C@@H](C)CS(C)(=O)=O)S(=O)(=O)c1ccc2nc(N)sc2c1 | IIIB |  | cytopathic effect / MTT | 0.084 µM
Cc1occc1C(=S)Nc1ccc(Cl)c(/C=N/OC(C)(C)C)c1 | IIIB |  | syncytia | 0.011 ± 0.008 µM
Cc1c(N)cccc1C(=O)N[C@@H](Cc1ccccc1)[C@H](O)CN(CC(C)C)S(=O)(=O)c1ccc2nc(N)sc2c1 | IIIB |  | cytopathic effect / MTT | 0.009 µM
Cc1cn([C@@H]2O[C@H](COCc3ccccc3)C3(OS(=O)(=O)C=C3N)[C@H]2O[Si](C)(C)C(C)(C)C)c(=O)[nH]c1=O | IIIB |  | syncytia | >6 µM
Cc1cn([C@@H]2O[C@H](C)C3(OS(=O)(=O)C=C3N)[C@H]2O[Si](C)(C)C(C)(C)C)c(=O)[nH]c1=O | IIIB |  | syncytia | >20 µg/mL
O=C1CN=C(c2ccc[nH]2)c2cc(Cl)ccc2N1 | IIIB |  | cytopathic effect / MTT | 0.25 µg/mL
Cc1c(N)nc(N)nc1OCCOCP(=O)(O)O | IIIB |  | syncytia | 0.23 µM
CC(C)CN(C[C@@H](O)[C@H](Cc1ccccc1)NC(=O)OCc1ccccc1)S(=O)(=O)c1ccc2nc(N)sc2c1 | IIIB |  | cytopathic effect / MTT | 0.015 µM
Cc1cn([C@H]2C=C[C@@H](CO)O2)c(=O)[nH]c1=O |  |  | syncytia | 0.28 µM
Cc1cn(C(C)C2(COCP(=O)(O)O)CC2)c(=O)[nH]c1=O |  |  | XTT | 86.5 µM
CC(C)CN(C[C@@H](O)[C@H](Cc1ccccc1)NC(=O)OCc1cccnc1)S(=O)(=O)c1ccc2nc(N)sc2c1 | IIIB |  | cytopathic effect / MTT | 0.005 µM
Cc1cn([C@@H]2O[C@H](CO[Si](C(C)(C)C)(C(C)(C)C)C(C)(C)C)C3(OS(=O)(=O)C=C3N)[C@H]2O[Si](C)(C)C(C)(C)C)c(=O)n(C)c1=O | IIIB |  | syncytia | >12 µM
CC(C)(C)NC(=O)c1ccccc1C[C@@H](O)[C@H](CSc1ccc2ccccc2c1)NC(=O)c1cccc(N)c1Br |  |  | cytopathic effect | 1.6 µg/mL
CC(C)CN(C[C@@H](O)[C@H](Cc1ccccc1)NC(=O)OCc1ccccc1)S(=O)(=O)c1ccc2sc(N)nc2c1 | IIIB |  | cytopathic effect / MTT | 0.102 µM
CC(C)[C@H](NC(=O)N(C)Cc1ccccn1)C(=O)N[C@@H](Cc1ccccc1)[C@H](O)[C@H](O)[C@H](Cc1ccccc1)NC(=O)[C@@H](NC(=O)N(C)Cc1ccccn1)C(C)C | LAV |  | cytopathic effect / MTT | 0.15 µM
CC(C)Nc1cccnc1N1CCN(C(=O)c2cc3cc(NS(C)(=O)=O)ccc3[nH]2)CC1 | IIIB | RT-V106A | syncytia | 0.15 ± 0.07 µM
Cc1cc(SC2=C(O)CC(C)(CCc3ccc(O)cc3)OC2=O)c(C(C)(C)C)cc1OS(=O)(=O)c1cn(C)cn1 | IIIB |  | cytopathic effect / XTT | 16 µM
CC(=O)OC(OC(C)=O)c1cc(C)c2c(c1)COP(=O)(OC[C@@H]1C=C[C@H](n3cc(C)c(=O)[nH]c3=O)O1)O2 |  |  |  | 0.16 µM
Cc1cn([C@H]2C[C@H](N=[N+]=[N-])[C@@H](CO)O2)c(=O)[nH]c1=O |  |  | syncytia | 0.031 µM
Cc1cn([C@H]2C=C[C@@H](CO)O2)c(=O)[nH]c1=O |  |  |  | 0.24 µM
CC(C)(C)NC(=O)c1ccccc1C[C@@H](O)[C@H](CSc1ccc2ccccc2c1)NC(=O)c1cccc2ncccc12 |  |  | cytopathic effect | 5.7 µg/mL
CC(n1ccc(=O)[nH]c1=O)C1(COCP(=O)(O)O)CC1 |  |  | XTT | >100 µM
Cc1cn([C@@H]2O[C@H](CO[Si](C)(C)C(C)(C)C(C)C)C3(OS(=O)(=O)C=C3N)[C@H]2O[Si](C)(C)C(C)(C)C)c(=O)n(C)c1=O | IIIB |  | syncytia | 0.8 µM
CC(C)=CCOc1cc(NC(=S)c2ccoc2C)ccc1Cl | IIIB |  | syncytia | 0.005 µM
Cc1ccnc2c1NC(=O)c1cccnc1N2C1CC1 | IIIB | RT-V106A | syncytia | ≥5 µM
Cc1c(N)cccc1C(=O)N[C@@H](CSc1ccc2ccccc2c1)[C@H](O)Cc1ccccc1C(=O)NC(C)(C)C |  |  | cytopathic effect | 5 µg/mL
Cc1cn([C@H]2C[C@H](N=[N+]=[N-])[C@@H](CO)O2)c(=O)[nH]c1=O | IIIB |  | syncytia | 0.002 µM
Cc1cn([C@@H]2O[C@H](CC3CCCCC3)C3(OS(=O)(=O)C=C3N)[C@H]2OC(=O)c2ccccc2)c(=O)[nH]c1=O | IIIB |  | syncytia | >4 µg/mL
Cc1cc(SC2=C(O)C[C@@](CCc3ccc(N)cc3)(C(C)C)OC2=O)c(C(C)(C)C)cc1CO |  |  |  | 0.2 µM
CO[Si](OC[C@H]1O[C@@H](n2cc(C)c(=O)n(C)c2=O)[C@H](O[Si](C)(C)C(C)(C)C)C12OS(=O)(=O)C=C2N)(c1ccccc1)C(C)(C)C | IIIB |  | syncytia | 3.1 µM
Fc1cccc(Cl)c1C1OCc2nc3ccccc3n21 | TIBO R82150-resistant (RT L100I) | RT-L100I | cytopathic effect / MTT | 7.71 µM
Cc1cn([C@@H]2O[C@H](COC(=O)C(C)(C)C)C3(OS(=O)(=O)C=C3N)[C@H]2O[Si](C)(C)C(C)(C)C)c(=O)[nH]c1=O | IIIB |  | syncytia | >35 µM
Cc1c(O)cccc1C(=O)N[C@@H](CSc1ccc2ccccc2c1)[C@H](O)Cc1ccccc1C(=O)NC(C)(C)C |  |  | cytopathic effect | 0.97 µg/mL
Cc1cn([C@@H]2O[C@H](COCc3ccccc3)C3(OS(=O)(=O)C(Cc4ccccc4)=C3NCc3ccccc3)[C@H]2O[Si](C)(C)C(C)(C)C)c(=O)n(C)c1=O | IIIB |  | syncytia | 51 µM
CC(C)=CCOc1cc(NC(=S)c2ccsc2C)ccc1Cl | IIIB | RT-K103N | cytopathic effect | 0.02 µg/mL
Nc1nc(N)c(Cc2c(N)nc(N)nc2OCCOCP(=O)(O)O)c(OCCOCP(=O)(O)O)n1 | IIIB |  | syncytia | 80 µM
O=c1[nH]cnc2c1ncn2[C@H]1CC[C@@H](CO)O1 | IIIB |  | syncytia | 5 µM
O=[N+]([O-])c1ccc(/C=N/Nc2ccnc3c(C(F)(F)F)cc(Cl)cc23)o1 |  |  | cytopathic effect | 0.01 µg/mL
Cc1cn([C@@H]2O[C@H](CO[Si](C)(C)C(C)(C)C)C3(OS(=O)(=O)C=C3N)[C@H]2O[Si](C)(C)C(C)(C)C(C)C)c(=O)n(C)c1=O | IIIB |  | syncytia | 0.11 µM
CC(C)CN(C[C@@H](O)[C@H](Cc1ccccc1)NC(=O)OCc1cncs1)S(=O)(=O)c1ccc2nc(N)sc2c1 | IIIB |  | cytopathic effect / MTT | 0.003 µM
CC1=C(C(=O)Nc2ccc(Cl)c(C(=O)OC(C)C)c2)SCCO1 | IIIB |  | syncytia | 0.042 µM
CC(n1ccc(N)nc1=O)C1(COCP(=O)(O)O)CC1 |  |  | XTT | 37.2 µM
Fc1cccc(F)c1C1SCc2nc3ccccc3n21 | IIIB |  | cytopathic effect / MTT | 1.39 µM
Cc1cn([C@H]2C=C[C@@H](COP(=O)(Nc3cc(C(=O)NCCC(=N)N)n(C)c3)OC(C)C)O2)c(=O)[nH]c1=O |  |  | syncytia | 1.87 µM
C=C(C)[C@@H]1CC[C@]2(C(=O)NCCCCCCCC(=O)N[C@@H](CC(C)C)[C@H](O)CC(=O)O)CC[C@]3(C)[C@H](CC[C@@H]4[C@@]5(C)CC[C@H](O)C(C)(C)[C@@H]5CC[C@]43C)[C@@H]12 | NL4-3 |  | RT activity | <0.22 µM
CC(C)Nc1cccnc1N1CCN(C(=O)c2cc3ccccc3[nH]2)CC1 | IIIB |  | syncytia | 0.04 µM
Cc1cn([C@@H]2O[C@H](CO[Si](C)(C)C(C)(C)C)[C@@]3(OS(=O)(=O)C=C3N)[C@H]2O[Si](C)(C)C(C)(C)C)c(=O)[nH]c1=O | IIIB |  | syncytia | 0.02 µg/mL
Cc1cn([C@@H]2O[C@H](CO[Si](C)(C)C(C)(C)C)C3(OS(=O)(=O)C=C3N)[C@H]2O[Si](C)(C)C(C)(C)C)c(=O)n(C)c1=O | Quin-0.02(RT-V106A) | RT-V106A | syncytia | 1.1 µM
Cn1cc(NC(=O)c2cc(NC(=O)c3cc([N+](=O)[O-])cn3C)cn2C)cc1C(=O)NCCC#N |  |  | syncytia | >100 µM
CC(C)CN(C[C@@H](O)[C@H](Cc1ccccc1)NC(=O)[C@@H](C)CS(C)(=O)=O)S(=O)(=O)c1ccc2ncsc2c1 | IIIB |  | cytopathic effect / MTT | 0.022 µM
CSc1c(C)c(SC)n2ccncc12 | IIIB |  | MTT / p24 | ~25 µM
Cn1cc(NC(=O)c2cc(NC(=O)c3cc([N+](=O)[O-])cn3C)cn2C)cc1C(=O)NCCC(=N)N |  |  | syncytia | >100 µM